Literature values, collected in paper PMC12797016.

Chains of the proteins cited; added tags and fusions are not shown.
UniProt P63167, whole entry: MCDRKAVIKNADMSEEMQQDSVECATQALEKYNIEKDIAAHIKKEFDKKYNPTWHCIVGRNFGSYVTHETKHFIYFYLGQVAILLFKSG

Target: LC8 (dynein light chain, DYNLL1/DYNLL2) (Homo sapiens) (UniProt P63167)
Experiment: ITC
Details: cited from earlier work
In the case of Bdbv, the Kd is listed as 0.82 µM.
For Bomv, the Kd is listed as 27.9 µM.
In the case of Tafv, the Kd is listed as 4.29 µM.
